Laboratory results taken from paper PMC11513920, “Building Metabolically Stable and Potent Anti-HIV Thioether-Lipid Analogues of Tenofovir Exalidex: A thorough Pharmacological Analysis” (Journal of Medicinal Chemistry, 2024).

The molecules below were run on HIV-1 subtype C strain MJ4 (assay: Single-cycle non-replicating HIV pseudoviral luciferase assay in HEK293T cells). Settings: CC50/HIV (MJ4) IC50.

Structure (SMILES)	therapeutic index
C[C@H](Cn1cnc2c(N)ncnc21)OCP(=O)(O)OCCCSCCCCCCCCCCC#Cc1ccc(F)cc1.N [15g]	>10,000
C[C@H](Cn1cnc2c(N)ncnc21)OCP(=O)(O)OCCCSCCCCCCCCCCCSc1ccccc1.N [23b]	>2000
C[C@H](Cn1cnc2c(N)ncnc21)OCP(=O)(O)OCCCSCCCCCCCCCCCOC1CCCCC1.N [23d]	>542
COC(=O)CCCCCCCCCCCCCCCSCCCOP(=O)(O)CO[C@H](C)Cn1cnc2c(N)ncnc21.N [23e]	>70
C[C@H](Cn1cnc2c(N)ncnc21)OCP(=O)(O)OCCCSCCCCCCCCCCCCC1CCCCC1.N [16h]	6250
C#CCCCCCCCCCCCCCCSCCCOP(=O)(O)CO[C@H](C)Cn1cnc2c(N)ncnc21 [15b]	>3570
C[C@H](Cn1cnc2c(N)ncnc21)OCP(=O)(O)OCCCSCCCCCCCCCCCCc1ccccc1.N [16f]	>12,500
C[C@H](Cn1cnc2c(N)ncnc21)OCP(=O)(O)OCCCSCCCCCCCCCCCCC#CC(C)(C)C.N [15e]	>516
C[C@H](Cn1cnc2c(N)ncnc21)OCP(=O)(O)OCCCSCCCCCCCCCCCCC#C[Si](C)(C)C.N [15c]	>4170
CCCCCCCSCCCCCCCCCCCCOP(=O)(O)CO[C@H](C)Cn1cnc2c(N)ncnc21.N [2e]	>296
CCCCCCCCCCCCCCSCCCOP(=O)(O)CO[C@H](C)Cn1cnc2c(N)ncnc21.N [2h]	>16,700
C[C@H](Cn1cnc2c(N)ncnc21)OCP(=O)(O)OCCCSCCCCCCCCCCCCc1ccc(F)cc1.N [16g]	>8065
CCCCCCCCCCCCCSCCCCCCOP(=O)(O)CO[C@H](C)Cn1cnc2c(N)ncnc21.N [2c]	>1370
C[C@H](Cn1cnc2c(N)ncnc21)OCP(=O)(O)OCCCSCCCCCCCCCCC#Cc1ccccc1.N [15f]	>12,500
CCCCSCCCCCCCCCCCCCCCOP(=O)(O)CO[C@H](C)Cn1cnc2c(N)ncnc21.N [2f]	>331
C[C@H](Cn1cnc2c(N)ncnc21)OCP(=O)(O)OCCCSCCCCCCCCCCCOc1ccccc1.N [23a]	>11,100
CCCCCCCCCCSCCCCCCCCCOP(=O)(O)CO[C@H](C)Cn1cnc2c(N)ncnc21.N [2d]	>1720
C[C@H](Cn1cnc2c(N)ncnc21)OCP(=O)(O)OCCCSCCCCCCCCCCC#CC1CCCCC1.N [15h]	>7580
